# Measured values from article PMC3663898 (Antiviral research, 2013).
# Conditions: rats, single oral dose 25, 50, 100 or 200mg/kg, 7-day observation
smiles,measurement,value
"OC[C@@H]1[C@@H](O)[C@H](O)[C@@H](O)CN1CCCCCCOc1cc(F)ccc1F [IHVR11029, (2R,3R,4R,5S)-1-(6-(2,5-difluorophenoxy)hexyl)-2-(hydroxymethyl)piperidine-3,4,5-triol]",survival in single oral dose MTD study,survived
